Source: PubChem BioAssay AID504761 (Drosophila RNAi Screening Center, 2011)
The deposit covers about 22,000 reagents; shown is a random part of those that have a named target and a result. Over the whole deposit, 116 (0.52%) got an active call. 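Calls depend on retest data that are not deposited; infection was ranked per plate without normalising between plates; the unit of the infection score is not given.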 Raw values are not corrected between plates. A number with no mark means an inactive call. No sequences are given here. The record does not give: the amount of reagent, the time to read-out.

- Aim: 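Fly genes whose silencing reduces dengue virus type 2 infection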 (primary screen)
- System: D.Mel-2 cells from Drosophila
- Reagents: long dsRNA against Drosophila genes
- Challenge: infection with dengue virus type 2; dose and infection time not stated
- Detection: 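Cells stained for dengue envelope protein and imaged; percent of infected cells per well on duplicate plates, ranked by infection, with stained nuclei counted for cell number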
- Direction: infection score: higher = more virus-infected cells; cell count: higher = more cells in the well
- Hit rule: 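Very low infection ranking in both replicate wells (chance probability at most 0.065), then a retest showing infection dropped 1.5-fold or more at p below 0.05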
- Calls: active = confirmed: knock-down lowers infection; inactive = not picked or not confirmed

Target gene | amplicon | infection score, replicate 1 | infection score, replicate 2 | cell count, replicate 1 | cell count, replicate 2
CG13239 | DRSC11694 | 15.6 | 13 | 6655 | 6310
Ddx56 | DRSC20567 | 8.65 | 2.43 | 4938 | 5998
Ddx56 | DRSC26165 | 1.85 | 1.58 | 5737 | 6394
Naxe | DRSC18251 | 7.93 | 2.28 | 4424 | 1097
CoRest | DRSC19881 | 4.66 | 1.9 | 6755 | 6536
CoRest | DRSC21626 | 4.08 | 2.92 | 5975 | 6135
CoRest | DRSC22305 | 4.58 | 7.81 | 5104 | 2074
CoRest | DRSC25141 | 5.76 | 10.3 | 6715 | 4415
Act5C | DRSC17723 | 9.41 | 4.69 | 4752 | 4604
Act5C | DRSC25024 | 6.08 | 14.8 | 5563 | 5555
CG4658 | DRSC02768 | 4.07 | 4.1 | 6609 | 6533
TrpRS | DRSC14097 | 2.36 | 5.77 | 6104 | 6669
Cpr65Av | DRSC09727 | 2.5 | 30 | 6276 | 5132
Cpr65Av | DRSC26499 | 8.3 | 3.94 | 5951 | 6160
tty | DRSC20588 | 1.44 | 1.25 | 6595 | 6621
tty | DRSC26868 | 6.62 | 10.5 | 6301 | 6443
ckn | DRSC06149 | 2.44 | 3.05 | 6446 | 6431
scra | DRSC07679 | 17.7 | 20.1 | 2975 | 2142
CG11353 | DRSC08182 | 15.4 | 17.6 | 5724 | 5675
Muc26B | DRSC02322 | 3.77 | 0.87 | 6157 | 6566
Muc26B | DRSC28140 | 5.15 | 3.33 | 6583 | 6300
CG6052 | DRSC10574 | 2.63 | 0.87 | 6228 | 6293
St4 | DRSC07008 | 7.85 | 2.66 | 6357 | 6810

A run of entries taken from the entries so far, as a working copy:
Target gene | amplicon | infection score, replicate 1 | infection score, replicate 2 | cell count, replicate 1 | cell count, replicate 2
Act5C | DRSC17723 | 9.41 | 4.69 | 4752 | 4604
Act5C | DRSC25024 | 6.08 | 14.8 | 5563 | 5555
CG4658 | DRSC02768 | 4.07 | 4.1 | 6609 | 6533
